Experimental data published in patent publication US10300071B2, “Compositions and methods for inhibition of mycobacteria” (priority 2014, dated 2019).

How the values were obtained:
[1] = tested on: human fibroblast
[2] = tested on: S. cerevisiae

SMILES: CONC(=O)[C@@H](C)Oc1ccc(Oc2nc3ccc(F)cc3s2)cc1 [NZ-289, (2R)-2-{4-[(6-fluoro-1,3-benzothiazol-2-yl)oxy]phenoxy}-N-methoxypropanamide]
- concentrations at which not toxic, human fibroblast cytotoxicity [1]: ≥ 100 µM
- concentrations at which not toxic, s. cerevisiae cytotoxicity [2]: ≥ 100 µM

SMILES: CONC(=O)[C@@H](C)Oc1ccc(Oc2nc3ccc(Cl)cc3o2)cc1 [NZ-296, (2R)-2-{4-[(6-chloro-1,3-benzoxazol-2-yl)oxy]phenoxy}-N-methoxypropanamide]
- concentrations at which not toxic, human fibroblast cytotoxicity [1]: ≥ 100 µM
- concentrations at which not toxic, s. cerevisiae cytotoxicity [2]: ≥ 100 µM

SMILES: COC(=O)C(C)c1ccc(Oc2nc3ccc(Cl)cc3s2)cc1 (stereo not drawn) [NZ-311, methyl 2-{4-[(6-chloro-1,3-benzothiazol-2-yl)oxy]phenyl}propanoate]
- concentrations at which not toxic, human fibroblast cytotoxicity [1]: ≥ 100 µM
- concentrations at which not toxic, s. cerevisiae cytotoxicity [2]: ≥ 100 µM

SMILES: CC(C)NC(=O)Nc1ccc(Oc2cnc3cc(Cl)ccc3n2)cc1 [NZ-322, 1-{4-[(6-chloroquinoxalin-2-yl)oxy]phenyl}-3-(propan-2-yl)urea]
- concentrations at which not toxic, human fibroblast cytotoxicity [1]: ≥ 100 µM
- concentrations at which not toxic, s. cerevisiae cytotoxicity [2]: ≥ 100 µM

SMILES: O=C1NCCN1c1ccc(Oc2nc3ccc(Cl)cc3s2)cc1 [NZ-341, 1-{4-[(6-chloro-1,3-benzothiazol-2-yl)oxy]phenyl}imidazolidin-2-one]
- concentrations at which not toxic, human fibroblast cytotoxicity [1]: ≥ 100 µM

SMILES: CNC(=O)Nc1ccc(Oc2cnc3cc(Cl)ccc3n2)cc1 [NZ-342, 1-{4-[(6-chloroquinoxalin-2-yl)oxy]phenyl}-3-methylurea]
- concentrations at which not toxic, human fibroblast cytotoxicity [1]: ≥ 100 µM

SMILES: CC(C)NC(=O)Nc1ccc(Oc2nc3ccc([N+](=O)[O-])cc3s2)cc1 [NZ-363, 1-{4-[(6-nitro-1,3-benzothiazol-2-yl)oxy]phenyl}-3-(propan-2-yl)urea]
- concentrations at which not toxic, human fibroblast cytotoxicity [1]: ≥ 100 µM
- concentrations at which not toxic, s. cerevisiae cytotoxicity [2]: ≥ 100 µM
